Results from patent publication US6713486B1, “Antiviral 2,4-pyrimidinedione derivatives and process for the preparation thereof” (Korea Research Institute of Chemical Technology, priority 1999, dated 2004).

Tested on: HIV-1
Details: CD50/ED50, MT-4 cells

SMILES | S.I. Selectivity index (CD50/ED50)
Cc1cc(C)cc(C(=O)c2c(C(C)C)c(=O)[nH]c(=O)n2Cc2ccncc2)c1 [Compound 1, 1-(4′-Picolyl)-5-isopropyl-6-(3′,5′-dimethylbenzoyl)-2,4-pyrimidinedione] | 8,600
Cc1cc(C)cc(C(=O)c2c(C(C)C)c(=O)[nH]c(=O)n2Cc2cccnc2)c1 [Compound 2, 1-(3′-Picolyl)-5-isopropyl-6-(3′, 5′-dimethylbenzoyl)-2,4-pyrimidinedione] | 7,578
Cc1cc(C)cc(C(=O)c2c(C(C)C)c(=O)[nH]c(=O)n2Cc2ccccn2)c1 [Compound 3, 1-(2′-Picolyl)-5-isopropyl-6-(3′, 5′-dimethylbenzoyl)-2,4-pyrimidinedione] | 4,788
Cc1cc(Cl)cc(Cn2c(C(=O)c3cc(C)cc(C)c3)c(C(C)C)c(=O)[nH]c2=O)c1 [Compound 40] | 229
Cc1cc(C)cc(C(=O)c2c(C(C)C)c(=O)[nH]c(=O)n2Cc2cc(F)cc(F)c2)c1 [Compound 43] | 2,057
Cc1cc(C)cc(C(=O)c2c(C(C)C)c(=O)[nH]c(=O)n2Cc2cc(C(F)(F)F)cc(C(F)(F)F)c2)c1 [Compound 44] | 5
Cc1cc(C)cc(Nc2c(C(C)C)c(=O)[nH]c(=O)n2Cc2ccncc2)c1 [Compound 66, 1-(4′-Picolyl)-5-isopropyl-6-(3′, 5′-dimethylphenylamino)-2,4-pyrimidinedione] | >1,287
CCc1c(Nc2cc(C)cc(C)c2)n(Cc2ccncc2)c(=O)[nH]c1=O [Compound 67, 1-(4′-Picolyl)-5-ethyl-6-(3′, 5′-dimethylphenylamino)-2,4-pyrimidinedione] | 130
Cc1cc(C)cc(C(=O)c2c(C(C)C)c(=O)[nH]c(=O)n2Cc2cc[n+]([O-])cc2)c1 [Compound 68, 1-(N-oxo-4′-Picolyl)-5-isopropyl-6-(3′,5′-dimethylbenzoyl)-2,4-pyrimidinedione] | 3,928
Cc1cc(C)cc(C(=O)c2c(C(C)C)c(=O)[nH]c(=O)n2Cc2cc[n+]([O-])cc2C)c1 [Compound 69, 1-(N-oxo-3′-Methyl-4′-picolyl)-5-isopropyl-6-(3′, 5′-dimethylbenzoyl)-2,4-pyrimidinedione] | 3,853
Cc1cc(C)cc(C(=O)c2c(C(C)C)c(=O)[nH]c(=O)n2Cc2c(C)c[n+]([O-])cc2C)c1 [Compound 70, 1-(N-oxo-3′, 5-Dimethyl-4′-picolyl)-5-Isopropyl-6-(3′, 5′-dimethylbenzoyl)-2,4-Pyrimidinedione] | 4,712
Cc1cc(Cl)cc(C(=O)c2c(C(C)C)c(=O)[nH]c(=O)n2Cc2c(C)c[n+]([O-])cc2C)c1 [Compound 71, 1-(N-oxo-3′,5′-Dimethyl-4′-picolyl)-5-isopropyl-6-(3′,-chloro-5-methylbenzoyl)-2,4-pyrimidinedione] | 3,092
CC(=O)OCc1cnccc1Cn1c(C(=O)c2cc(C)cc(C)c2)c(C(C)C)c(=O)[nH]c1=O [Compound 72, 1-(3′-Acetoxymethyl-4′-picolyl)-5-Isopropyl-6-(3′,5′-dimethylbenzoyl)-2,4-pyrimidinedione] | 4,365
CC(=O)OCc1cncc(C)c1Cn1c(C(=O)c2cc(C)cc(C)c2)c(C(C)C)c(=O)[nH]c1=O [Compound 73, 1-(3′-Acetoxymethyl-5′-methyl-4′-picolyl)-5-isopropyl-6-(3′,5′-dimethylbenzoyl)-2,4-pyrimidinedione] | 5,903
Cc1cc(C)cc(C(=O)c2c(C(C)C)c(=O)[nH]c(=O)n2Cc2ccncc2CO)c1 [Compound 75, 1-(3′-Hydroxymethyl-4′-picolyl)-5-isopropyl-6-(3′,5′-dimethylbenzoyl)-2,4-pyrimidinedione] | 13,444
Cc1cc(C)cc(C(=O)c2c(C(C)C)c(=O)[nH]c(=O)n2Cc2c(C)cncc2CO)c1 [Compound 76, 1-(3′-Hydroxymethyl-5′-methyl-4′-picolyl)-5-isopropyl-6-(3′, 5′-dimethylbenzoyl)-2,4-pyrimidinedione] | 4,561
Cc1cc(Cl)cc(C(=O)c2c(C(C)C)c(=O)[nH]c(=O)n2Cc2c(C)cncc2CO)c1 [Compound 77, 1-(3′-Hydroxymethyl-5′-methyl-4′-picolyl)-5-isopropyl-6-(3′-chloro-5′-methylbenzoyl)-2,4-pyrimidinedione] | 2,052
COC(=O)c1cnccc1Cn1c(C(=O)c2cc(C)cc(C)c2)c(C(C)C)c(=O)[nH]c1=O [Compound 78, 1-(3′-Methoxycarbonyl-4′-picolyl)-5-isopropyl-6-(31,51-dimethylbenzoyl)-2,4-pyrimidinedione] | 5,414
Cc1cc(C)cc(C(=O)c2c(C(C)C)c(=O)[nH]c(=O)n2Cc2ccncc2C(N)=O)c1 [Compound 79, 1-(3′-Carbamoyl-4′-picolyl)-5-isopropyl-6-(3′,5′-dimethylbenzoyl)-2,4-pyrimidinedione] | >10,942
Cc1cc(Cl)cc(C(=O)c2c(C(C)C)c(=O)[nH]c(=O)n2Cc2ccncc2C(N)=O)c1 [Compound 80, 1-(3′-Carbamoyl-4′-picolyl)-5-isopropyl-6-(3′-chloro-5′-methylbenzoyl)-2,4-pyrimidinedione] | 2,507
